Test results: paper PMC12432378 (Cell Reports Medicine, 2025)

What was measured:
[1] = test system: HCoV-OC43; test: Lethal HCoV-OC43-infected mouse model; format: in vivo; conditions: newborn ICR mice, 3 mg/kg intranasal 30 min after challenge, n = 6; rapid recovery by 8 dpi; Figure S7C
[2] = test system: inflammatory genes in MjHKU4r-CoV-1-infected Caco-2 cells; test: Inflammatory gene expression induced by MjHKU4r-CoV-1 infection in Caco-2 cells, RT-qPCR; conditions: 40 nM peptide

CC[C@H](C)[C@H](NC(=O)[C@H](C)NC(=O)[C@H](CCSC)NC(=O)[C@H](CCC(=O)O)NC(=O)[C@H](CC(=O)O)NC(=O)[C@H](CO)NC(=O)[C@H](CC(C)C)NC(=O)[C@H](CC(=O)O)NC(=O)[C@H](CC(C)C)NC(=O)[C@H](CC(C)C)NC(=O)[C@@H](NC(=O)[C@@H](NC(=O)[C@H](CC(N)=O)NC(=O)[C@@H](NC(=O)[C@H](CCCCN)NC(=O)[C@H](CO)NC(=O)[C@@H](NC(=O)[C@H](CCC(=O)O)NC(C)=O)[C@@H](C)CC)[C@@H](C)CC)C(C)C)[C@@H](C)O)C(=O)N[C@@H](CC(C)C)C(=O)N[C@@H](CC(C)C)C(=O)N[C@@]1(C)CCCC=CCCC[C@@](C)(C(=O)N[C@@H](CC(C)C)C(=O)N[C@@H](CC(N)=O)C(=O)N[C@@H](CC(=O)O)C(=O)N[C@@H](CO)C(=O)N[C@@H](Cc2ccc(O)cc2)C(=O)N[C@H](C(=O)N[C@@H](CC(=O)O)C(=O)N[C@@H](CC(C)C)C(=O)N[C@@H](CCCCN)C(=O)N[C@@H](CCC(=O)O)C(=O)N[C@@H](CC(C)C)C(N)=O)[C@@H](C)CC)NC(=O)[C@H](CCCCN)NC(=O)[C@H]([C@@H](C)CC)NC(=O)[C@H](C)NC1=O [MjHKU4r-HR2P10]
Body weight change after HCoV-OC43 challenge [1]: only minimal weight loss
Upregulation of inflammatory genes (IL-6, TNF-α, IFN-β1, IFN-λ1, and IFN-λ3) induced by MjHKU4r-CoV infection ([2]; Figure 6F): completely blocked
Upregulation of inflammatory genes (CXCL2, CCL5, IFN-λ2) induced by MjHKU4r-CoV-1 infection ([2]; Figure S6): completely blocked
